Data published in PMC8950828 (Viruses, 2022).

Legend:
SARS-CoV-2 = details: 13 passages of SARS-CoV-2, RdRp mutation E802D; cited from earlier work
HCoV-229E = assay: Serial passaging of HCoV-229E with rocaglates and challenge experiment; details: MRC-5 cells, increasing concentrations 5–10 nM, p15 vs p0

Compound: CCC(CC)COC(=O)[C@H](C)N[P@](=O)(OC[C@H]1O[C@@](C#N)(c2ccc3c(N)ncnn23)[C@H](O)[C@@H]1O)Oc1ccccc1
- resistance after passaging (SARS-CoV-2): partial resistance

Compound: CONC(=O)[C@H]1[C@@H](O)[C@@]2(O)c3c(OC)cc(OC)cc3O[C@@]2(c2ccc(OC)cc2)[C@@H]1c1ccccc1 [CR-1-31-B]
- sensitivity of virus passaged 15 times to rocaglates (HCoV-229E): remained sensitive

Compound: COC(=O)[C@H]1[C@@H](O)[C@@]2(O)c3c(OC)cc(O[C@@H]4O[C@@H]([C@H](O)CO)CO[C@H]4OC)cc3O[C@@]2(c2ccc(OC)cc2)[C@@H]1c1ccccc1 [Silvestrol]
- sensitivity of virus passaged 15 times to rocaglates (HCoV-229E): remained sensitive
